Values quoted from earlier work, collected in US20130058910A1, “DECONTAMINATION OF CHEMICAL AND BIOLOGICAL AGENTS” (published 2013).

How the values were obtained:
[1] = tested on: methicillin-resistant Staphylococcus aureus (MRSA); details: multiple MRSA isolates, within 30 minutes; cited from earlier work
E. coli = details: cited from earlier work
S. aureus = details: cited from earlier work

| Molecule | minimal biocidal concentration [1] [ppm] | minimal inhibitory concentration (MIC) for bactericidal activity (E. coli) [ppm] | minimal inhibitory concentration (MIC) for bactericidal activity (S. aureus) [ppm] |
| --- | --- | --- | --- |
| povidone iodine | 512 | – | – |
| bromine | – | 4.3 | 28 |
| II | – | 0.6 | 0.1 |
